PubChem BioAssay AID1259414 – Drosophila RNAi Screening Center, 2018
The screen tested about 24,000 reagents; shown is a random part of those with a known target gene and a result. Over the whole deposit, about 1,210 (5%) got an active call. 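Inactive calls also include excluded dsRNAs with several or no targets, genes unexpressed in JW18, and well A1, regardless of score.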 The numbers tell different reagents against one gene apart. Names joined by + are all predicted targets of the reagent.

Assay: 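Host factors increasing or decreasing Wolbachia levels in cultured fly cells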 (primary screen)
System: Drosophila JW18 cells infected with Wolbachia
Reagent: long dsRNA against Drosophila genes, 0.25 µg dsRNA per well of a 384-well plate
Timing: 5 days
Treatment: cells persistently infected with Wolbachia before knock-down; no added drug
Detection: 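Automated imaging of bacterial rRNA staining divided by host cell count, reported as plate-normalised robust z-score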
Scale: Wolbachia per cell robust z: higher = more Wolbachia per host cell than the plate typical
Active means: 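Hit when robust z is 1.5 or more, or -1.5 or less, in at least two of three replicates; excludes dsRNAs with several or no targets, genes not expressed in JW18 and well A1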

CG11178
- Wolbachia per cell robust z, rep 1: 0.426
- Wolbachia per cell robust z, rep 2: -4.42
- Wolbachia per cell robust z, rep 3: -1.84
- outcome: active

Prosalpha4 #1
- Wolbachia per cell robust z, rep 1: 2.03
- Wolbachia per cell robust z, rep 2: 1.71
- Wolbachia per cell robust z, rep 3: 1.23
- outcome: active

Prosalpha4 #2
- Wolbachia per cell robust z, rep 1: 0.873
- Wolbachia per cell robust z, rep 2: 1.3
- Wolbachia per cell robust z, rep 3: 0.864
- outcome: inactive

CG9692
- Wolbachia per cell robust z, rep 1: -0.956
- Wolbachia per cell robust z, rep 2: -1.28
- Wolbachia per cell robust z, rep 3: -0.128
- outcome: inactive

PPO3 #1
- Wolbachia per cell robust z, rep 1: 0.04
- Wolbachia per cell robust z, rep 2: 0.019
- Wolbachia per cell robust z, rep 3: -0.639
- outcome: inactive

PPO3 #2
- Wolbachia per cell robust z, rep 1: 0.478
- Wolbachia per cell robust z, rep 2: -0.557
- Wolbachia per cell robust z, rep 3: -1.68
- outcome: inactive

Ilp8
- Wolbachia per cell robust z, rep 1: 1.54
- Wolbachia per cell robust z, rep 2: 0.624
- Wolbachia per cell robust z, rep 3: -0.558
- outcome: inactive

CR31958 #1
- Wolbachia per cell robust z, rep 1: 1.04
- Wolbachia per cell robust z, rep 2: 1.85
- Wolbachia per cell robust z, rep 3: -1.41
- outcome: inactive

CR31958 #2
- Wolbachia per cell robust z, rep 1: -3.42
- Wolbachia per cell robust z, rep 2: -0.461
- Wolbachia per cell robust z, rep 3: -1.35
- outcome: inactive

CR31958 #3
- Wolbachia per cell robust z, rep 1: -1.67
- Wolbachia per cell robust z, rep 2: 0.219
- Wolbachia per cell robust z, rep 3: -1.11
- outcome: inactive

CG42542 #1
- Wolbachia per cell robust z, rep 1: -0.128
- Wolbachia per cell robust z, rep 2: -0.111
- Wolbachia per cell robust z, rep 3: -0.926
- outcome: inactive

CG42542 #2
- Wolbachia per cell robust z, rep 1: -1.04
- Wolbachia per cell robust z, rep 2: -1.03
- Wolbachia per cell robust z, rep 3: -1.17
- outcome: inactive

CG42542 #3
- Wolbachia per cell robust z, rep 1: -4.19
- Wolbachia per cell robust z, rep 2: -0.776
- Wolbachia per cell robust z, rep 3: -0.678
- outcome: inactive

CG42542 #4
- Wolbachia per cell robust z, rep 1: 1.53
- Wolbachia per cell robust z, rep 2: 0.0219
- Wolbachia per cell robust z, rep 3: 0.389
- outcome: inactive

snoRNA:Psi28S-291
- Wolbachia per cell robust z, rep 1: -0.012
- Wolbachia per cell robust z, rep 2: 0.458
- Wolbachia per cell robust z, rep 3: 1.81
- outcome: inactive

CG43673 + CG43672
- Wolbachia per cell robust z, rep 1: -0.688
- Wolbachia per cell robust z, rep 2: -0.0389
- Wolbachia per cell robust z, rep 3: -4.02
- outcome: inactive

Entries listed so far with an active call (2):
CG11178
- Wolbachia per cell robust z, rep 1: 0.426
- Wolbachia per cell robust z, rep 2: -4.42
- Wolbachia per cell robust z, rep 3: -1.84
- outcome: active

Prosalpha4 #1
- Wolbachia per cell robust z, rep 1: 2.03
- Wolbachia per cell robust z, rep 2: 1.71
- Wolbachia per cell robust z, rep 3: 1.23
- outcome: active

The list goes on:
Vps4 #1
- Wolbachia per cell robust z, rep 1: 2.22
- Wolbachia per cell robust z, rep 2: 2.06
- Wolbachia per cell robust z, rep 3: 7.52
- outcome: inactive

Vps4 #2
- Wolbachia per cell robust z, rep 1: 3.61
- Wolbachia per cell robust z, rep 2: 4.04
- Wolbachia per cell robust z, rep 3: 5.95
- outcome: inactive

nAChRbeta3
- Wolbachia per cell robust z, rep 1: -2.13
- Wolbachia per cell robust z, rep 2: -0.809
- Wolbachia per cell robust z, rep 3: -0.417
- outcome: inactive

egl
- Wolbachia per cell robust z, rep 1: -1.72
- Wolbachia per cell robust z, rep 2: 0.547
- Wolbachia per cell robust z, rep 3: -0.36
- outcome: inactive

CycD #1
- Wolbachia per cell robust z, rep 1: 1.54
- Wolbachia per cell robust z, rep 2: 1
- Wolbachia per cell robust z, rep 3: -3.17
- outcome: inactive

CycD #2
- Wolbachia per cell robust z, rep 1: 1.32
- Wolbachia per cell robust z, rep 2: 2.17
- Wolbachia per cell robust z, rep 3: 1.28
- outcome: inactive

CG9391
- Wolbachia per cell robust z, rep 1: -0.493
- Wolbachia per cell robust z, rep 2: 0.353
- Wolbachia per cell robust z, rep 3: -2.09
- outcome: inactive

CG31038 #1
- Wolbachia per cell robust z, rep 1: -10.9
- Wolbachia per cell robust z, rep 2: 0.176
- Wolbachia per cell robust z, rep 3: -0.804
- outcome: inactive

CG31038 #2
- Wolbachia per cell robust z, rep 1: 0.126
- Wolbachia per cell robust z, rep 2: -3.36
- Wolbachia per cell robust z, rep 3: 0.325
- outcome: inactive

CG31038 #3
- Wolbachia per cell robust z, rep 1: 0.332
- Wolbachia per cell robust z, rep 2: -2.18
- Wolbachia per cell robust z, rep 3: -0.792
- outcome: inactive

CG31038 #4
- Wolbachia per cell robust z, rep 1: -0.103
- Wolbachia per cell robust z, rep 2: 0.245
- Wolbachia per cell robust z, rep 3: 1.32
- outcome: inactive
